Laboratory results published in US20030099935A1 (WHITEHEAD INSTITUTE FOR BIOMEDICAL RESEARCH, published 2003).

Target: T1, N36 peptide (HIV-1 gp41 N-terminal ectodomain fragment, […] of gp160) (HIV-1, acetylated N-terminus; C-terminal amide)
T1 construct: Synthetic peptide made by FMOC chemistry; Three N36 helices form the central parallel coiled coil of the N36/C34 six-helix bundle; Residues are numbered by their position in HIV-1 gp160; also called N-peptide; N36 trimer
Assay: protein dissection and biophysical characterisation of the peptide complex

B1: C34 peptide (HIV-1 gp41 C-terminal ectodomain fragment, […] of gp160) (peptide)
peptide: not shown
modifications: acetylated N-terminus; C-terminal amide
notes: Synthetic peptide made by FMOC chemistry; Three C34 helices pack antiparallel on the outside of the N36 trimer; Residues are numbered by their position in HIV-1 gp160; also called C-peptide
B1: binds.
